{"source": "paper PMC5702678", "target": "BG505 SOSIP.664 trimer (HIV-1) (UniProt Q2N0S6)", "assay": "negative-stain EM, single-particle 2D classification; in solution; 90 nM trimer incubated 1 h with 600 nM VRC01 Fab, then overnight with 600 nM sCD4; ambient conditions; particles counted in 2D class averages", "data": [{"substance": "soluble CD4 (from UniProt P01730 26-396) (receptor)", "values": [{"measurement": "percent of particles in mixed sCD4-VRC01 classes", "result": 16, "unit": "%"}, {"measurement": "percent of particles in the sCD4-bound open trimer class", "result": 70, "unit": "%"}]}]}
